Pooled drug test results. Numbers come from NIAID ChemDB, via PubChem.

All rows: tests in culture; species: HIV-1; endpoint: EC50

Blank or dashed fields: not listed here. ECn is the concentration giving n% inhibition of infection, replication or growth. Lines come from different laboratories, so protocols vary.

| structure | strain or isolate | mutations | cells | result |
|---|---|---|---|---|
| CCN(CC)c1ccc(/C=N/NC(=O)CN2c3c(-c4ccccc4)n[nH]c3-c3ccccc3S2(=O)=O)cc1 |  |  | PBMC | 27.2 µM |
| O=C1Nc2ccc(Cl)cc2[C@@](C#CC2CC2)(C(F)(F)F)[C@H]1OCc1ccncc1 |  | RT-L100I |  | <0.023 µM |
| CC(C)[C@H](NC(=O)[C@H](Cc1cccc2ccccc12)CS(=O)(=O)C(C)(C)C)C(=O)N[C@@H](Cc1ccccc1)[C@@H](O)CN1CCCC[C@H]1C(F)(F)F |  |  | PBL | >1 µM |
| NC(=O)[C@@H](N)Cc1ccc(O)cc1 | IIIB |  | CEM | 500 µM |
| CC(C)(C)NC(=O)[C@@H]1C[C@@H]2CCCC[C@@H]2CN1C[C@@H](O)[C@H](CSc1ccccc1)NC(=O)[C@H](CC(N)=O)NC(=O)c1ccc2ccccc2n1 |  |  | CEM + CEM-SS | <0.0013 µM |
| C#Cc1cnc(C(=O)c2ccccc2)nc1C(=O)c1ccccc1 | LAI |  | PBMC | 2.1 µM |
| CCCCO[C@]12CS(=O)(=O)O[C@@]13[C@@H](CN2)O[C@@H](n1cc(C)c(=O)[nH]c1=O)[C@@H]3O | IIIB |  | CEM | >125 µM |
| Cc1cn([C@H]2C=C[C@@H](CO)O2)c(=O)[nH]c1=O |  |  | CEM | 0.65 µM |
| Nc1ncnc2c1ncn2[C@@H]1C[C@H](COP(=O)(O)OP(=O)(O)OP(=O)(O)O)C2CC21 |  |  |  | >100 µg/mL |
| C=CCO[C@]12CS(=O)(=O)O[C@@]13[C@@H](CN2)O[C@@H](n1cc(C)c(=O)[nH]c1=O)[C@@H]3O[Si](C)(C)C(C)(C)C | IIIB |  | CEM | 15 µM |
| COc1cccc2c1nc(-c1ccccc1F)n2C(=O)OC(C)C | IIIB |  | MT-4 | 0.0231 µg/mL |
| Cc1cn([C@@H]2O[C@@H]3CN[C@@]4(OCC5CCOC5)CS(=O)(=O)O[C@@]34[C@H]2O[Si](C)(C)C(C)(C)C)c(=O)[nH]c1=O | IIIB |  | CEM | >50 µM |
| CNc1ncnc2c1ncn2[C@@H]1O[C@H](CO)C[C@@H]1N=[N+]=[N-] | IIIB |  | MT-4 | >101 µg/mL |
| CN(C)c1ccc(/C=N/NC(=O)CN2c3c(-c4ccccc4)n[nH]c3-c3ccccc3S2(=O)=O)cc1 |  |  | PBMC | >100 µM |
| CC(C)C[C@@H](N)C(=O)O | IIIB |  | CEM | 1000 µM |
| CC(=O)Nc1ccc(S(=O)(=O)N(CC(C)C)C[C@@H](O)[C@H](CCc2ccccc2)NC(=O)CN2C(=O)c3ccccc3S2(=O)=O)cc1 |  |  |  | 7.2 µM |
| COc1ccccc1NC(=O)c1ccccc1C(O)c1ccc([N+](=O)[O-])cc1 | LAI |  | H9 | 2.8 µM |
| O=C1Nc2ccc(Cl)cc2[C@@](C#CC2CC2)(C(F)(F)F)[C@H]1OCc1ccc(F)cc1 | RF |  | MT-2 | <0.112 µM |
| Fc1cccc(Cl)c1C1SCc2nc3cc4ccccc4cc3n21 | RF |  | CEM + CEM-SS | >200 µM |
| Cc1cc(CO)ccc1CNC(=O)[C@H]1N(C(=O)[C@@H](O)[C@H](CCc2ccccc2)NC(=O)O[C@H]2CO[C@H]3OCC[C@H]32)CSC1(C)C |  |  |  | 0.23 µM |
| COc1cccc2c1nc(-c1ccccc1F)n2Cc1cccc(C)c1 | IIIB |  | MT-4 | 0.019 µg/mL |
| NC(=O)C(N)Cc1ccccc1 | IIIB |  | CEM | 1000 µM |
| CC(C)[C@H](NC(=O)[C@H](Cc1cccc2ccccc12)CS(=O)(=O)C(C)(C)C)C(=O)N[C@@H](Cc1ccccc1)[C@@H](O)C(O)CN1CCCC[C@H]1C(F)(F)F |  |  | PBL | 5.2 µM |
| c1ccc(C2SCc3nc4cc5ccccc5cc4n32)cc1 | RF |  | CEM + CEM-SS | >200 µM |
| NC(=O)[C@@H](N)CCCN=C(N)N | IIIB |  | CEM | 500 µM |
| NC(=O)C[C@H](NC(=O)c1ccc2ccccc2n1)C(=O)N[C@@H](Cc1ccccc1)[C@H](O)CN1CCC[C@H]1C(F)(F)F |  |  | PBL | 0.87 µM |
| CC1(C)C=C2C3CCC4[C@@]5(C)CC[C@H](O)C(C)(C)C5CC[C@@]4(C)[C@]3(C)CC[C@@]2(C)C[C@H]1O | NL4-3 |  | MT-2 | 64.36 µM |
| COc1cccc2c1nc(-c1ccccc1F)n2Cc1c(F)ccc(F)c1F | IIIB |  | MT-4 | 0.0014 µg/mL |
| COC(=O)CNP(=O)(OC[C@@H]1C=C[C@H](n2cc(C)c(=O)[nH]c2=O)O1)Oc1ccccc1 |  |  | CEM | 6 µM |
| O=C(O)[C@H]1O[C@@H](Oc2cc3oc(-c4ccccc4)cc(=O)c3c(O)c2O)[C@H](O)[C@@H](O)[C@@H]1O | ENV(BAL31) |  | HOS-CD5-CCR5 + HOS | 4 µM |
| O=C1Nc2ccc(Cl)cc2[C@@](C#CC2CC2)(C(F)(F)F)[C@H]1OCc1ccccc1 | RF |  | MT-2 | <0.071 µM |
| COc1ccccc1NC(=O)c1ccccc1C(O)c1cccc([N+](=O)[O-])c1 | LAI |  | MT-4 | >100 µM |
| COC(=O)[C@@H](NP(=O)(OC[C@@H]1C=C[C@H](n2cc(C)c(=O)[nH]c2=O)O1)Oc1ccccc1)c1ccccc1 |  |  | CEM | 15.3 µM |
| Fc1cccc(F)c1C1SCc2nc3cc4ccccc4cc3n21 | RF |  | CEM + CEM-SS | >0.63 µM |
| CC(=O)N[C@H]1OC(CO[Si](C)(C)C(C)(C)C)C2(OS(=O)(=O)C=C2N)C1O[Si](C)(C)C(C)(C)C |  |  | CEM + CEM/0 | >7.7 µM |
| O=C(CN1c2c(-c3ccccc3)n[nH]c2-c2ccccc2S1(=O)=O)N/N=C/c1cccc([N+](=O)[O-])c1 |  |  | PBMC | 3.3 µM |
| N=C(N)c1ccc(-c2ccc(-c3ccc(C(=N)N)cc3)o2)cc1 |  |  |  | 5 µM |
| CC(=O)Nc1ccc(S(=O)(=O)N(Cc2ccccc2)C[C@@H](O)[C@H](CCc2ccccc2)NC(=O)Cc2c[nH]c3ccccc23)cc1 |  |  |  | 4.8 µM |
| CC(C)(C)S(=O)(=O)C[C@@H](Cc1cccc2ccccc12)C(=O)N[C@@H](CC(N)=O)C(=O)N[C@@H](Cc1ccccc1)[C@H](O)C(O)CN1CCC[C@H]1C(F)(F)F |  |  | PBL | 16 µM |
| C=C(C)C(=O)NC(=O)N[C@@H]1OC(CO[Si](C)(C)C(C)(C)C)C2(OS(=O)(=O)C=C2N)C1O[Si](C)(C)C(C)(C)C |  |  | MT-4 | 0.6 µM |
| Cc1ccnc(SC(F)(F)c2nc3ccccc3o2)n1 | ddI-resistant (RT L74V) | RT-L74V |  | 0.159 µM |
| COc1ccccc1NC(=O)c1ccccc1C(O)c1ccc(OCO)c(OCO)c1 | LAI |  | MT-4 | 45.2 µM |
| C=C(C)CNC(=O)[C@H]1N(C(=O)[C@@H](O)[C@H](CCc2ccccc2)NC(=O)COc2c(C)cc(N)cc2C)CSC1(C)C |  |  |  | 0.01 µM |
| N#Cc1cc(Cl)cc(Oc2c(Br)ccc(CC(=O)Nc3ccc(S(N)(=O)=O)cc3Cl)c2F)c1 |  | Y181I | MT-4 | 0.0008 µM |
| [N-]=[N+]=N[C@H]1C[C@@H](CO)O[C@H]1n1cnc2c(NC3CCCC3)ncnc21 | IIIB |  | MT-4 | >125 µg/mL |
| CC1(C)C(=O)CC[C@@]2(C)C1CC[C@]1(C)C2CCC2C3=C[C@](C)(CO)CC[C@]3(C)CC[C@]21C | NL4-3 |  | MT-2 | 10 µM |
| CC(C)[C@H](NC(=O)[C@H](Cc1cccc2ccccc12)CS(=O)(=O)C(C)(C)C)C(=O)N[C@@H](Cc1ccccc1)[C@@H](O)CN1C[C@@H]2CCCC[C@@H]2C[C@H]1C(F)(F)F |  |  | PBL | >1 µM |
| O=C(CN1c2c(-c3ccccc3)n[nH]c2-c2ccccc2S1(=O)=O)N/N=C/c1ccc(Br)cc1 |  |  | PBMC | 4.1 µM |
| CCCOC12CS(=O)(=O)OC13[C@@H](CN2)O[C@@H](n1cc(C)c(=O)[nH]c1=O)[C@@H]3O[Si](C)(C)C(C)(C)C | IIIB |  | MT-4 | 5.1 µM |
| Cc1nc2ccccc2c(-c2ccc(Cl)cc2)c1[C@H](OC(C)(C)C)C(=O)O |  |  | PBMC | 0.287 µM |
| COc1ccc(C(O)c2ccccc2C(=O)Nc2ccccc2OC)cc1 | LAI |  | H9 | >100 µM |
| COc1ncc(I)c(OC)n1 | LAI |  | PBMC | >100 µM |
| OC[C@H]1C[C@@H](n2cnc3c(Cl)ncnc32)C2CC21 |  |  |  | >100 µg/mL |
| COc1cccc2c1nc(-c1ccccc1F)n2Cc1c(C)cccc1C | IIIB |  | MT-4 | 0.005 µg/mL |
| CC1(C)C=C2C3CCC4[C@@]5(C)CCC(=O)C(C)(C)C5CC[C@@]4(C)[C@]3(C)CC[C@@]2(C)CC1=O | NL4-3 |  | MT-2 | 4.038 µM |
| Nc1nc(N)c2ncn([C@@H]3C[C@H](CO)C4CC43)c2n1 |  |  |  | >100 µg/mL |
| C#Cc1cn([C@H]2C[C@H](O)[C@@H](CO)O2)c(=O)[nH]c1=O | LAI |  | PBMC | 0.61 µM |
| c1cc(-c2ccc(-c3ccc(C4=NCCN4)cc3)o2)ccc1C1=NCCN1 |  |  |  | 1 µM |
| COc1cccc2c1nc(-c1ccccc1F)n2Cc1ccc(Cl)cc1 | IIIB |  | MT-4 | 1.83 µg/mL |
| FC(F)(Sc1ncccn1)c1nc2ccccc2o1 | 4xAZT(RT-D67N K70R T215Y K219Q) | RT-D67N K70R T215Y K219Q |  | 0.373 µM |
| CC(=O)Nc1ccc(S(=O)(=O)N(CC(C)C)C[C@@H](O)[C@H](CCc2ccccc2)NC(=O)Cn2c(=O)oc3ccccc32)cc1 |  |  |  | 0.8 µM |

A second listing of 4 rows from above:

| structure | strain or isolate | mutations | cells | result |
|---|---|---|---|---|
| Fc1cccc(F)c1C1SCc2nc3cc4ccccc4cc3n21 | RF |  | CEM + CEM-SS | >0.63 µM |
| CC(C)[C@H](NC(=O)[C@H](Cc1cccc2ccccc12)CS(=O)(=O)C(C)(C)C)C(=O)N[C@@H](Cc1ccccc1)[C@@H](O)CN1C[C@@H]2CCCC[C@@H]2C[C@H]1C(F)(F)F |  |  | PBL | >1 µM |
| NC(=O)[C@@H](N)Cc1ccc(O)cc1 | IIIB |  | CEM | 500 µM |
| COc1ccccc1NC(=O)c1ccccc1C(O)c1ccc([N+](=O)[O-])cc1 | LAI |  | H9 | 2.8 µM |